Results of unrelated studies side by side (data: NIAID ChemDB).

Common to all: growth or infection tests; species: Hepatitis C virus; measure: inhibition

a–b is a range or a potency band. Blank or dashed fields: not listed here. Conditions beyond the fields shown may differ between rows. Inhibition is in % at the dose shown (toxicity tests: loss of growth or viability).

structure,strain,dose,method,mutations,setting,cells,result
Cc1n[nH]c(=O)c2cc3c(C)n[nH]c(=O)c3cc12,GT1b,50 µM,luciferase / reporter gene,-,-,Huh7,0%
C[C@H]1[C@H]2[C@H](OC3O[C@H](CO)[C@@H](O)[C@H](O)[C@H]3O)OC=C(C(=O)O)[C@H]2C[C@@H]1O,-,20 µg/mL,entry,-,-,-,0%
CC1(C)CC[C@@]2(C(=O)NCc3cn(CCCCn4cc(CNC(=O)[C@]56CCC(C)(C)CC5C5=CCC7[C@@]8(C)CC[C@H](O)C(C)(C)C8CC[C@@]7(C)[C@]5(C)C[C@H]6O)nn4)nn3)C(C1)C1=CCC3[C@@]4(C)CC[C@H](O)C(C)(C)C4CC[C@@]3(C)[C@]1(C)C[C@H]2O,-,1 µM,luciferase / entry,-,-,Huh7,47.8%
Cc1c(C(=O)NN2CCCCC2)nn(-c2ccc(Cl)cc2Cl)c1-c1ccc(I)cc1,JFH-1,10 µM,PCR,-,-,Huh7,60–70%
COC(=O)C1=CO[C@@H](O[C@@H]2O[C@H](CO)[C@@H](O)[C@H](O)[C@H]2O)[C@H]2[C@@H]1C(=O)C[C@@H]2C,-,20 µg/mL,entry,-,-,-,0%
COc1nc(N)nc2c1ncn2[C@@H]1O[C@H](COP(=O)(N[C@@H](C)C(=O)OCC(C)(C)C)Oc2cccc3ccccc23)[C@@H](O)[C@@]1(C)O,2a,0.0065 µM,luciferase,-,24 h,Huh7,90%
COc1cc(Cc2cnc(/N=C3\C(=O)N(CN4CCN(c5cccc(C(F)(F)F)c5)CC4)c4ccc(C)cc43)nc2N)cc(OC)c1OC,-,50 µg/mL,-,-,-,Huh7,87%
COC(=O)C1=CO[C@@H](O)[C@@H]2[C@@H](C)[C@@H](O)C[C@H]12,-,20 µg/mL,entry,-,-,-,41.4%
COc1cc(Cc2cnc(/N=C3\C(=O)N(CN4CCN(c5c(F)cc6c(=O)c(C(=O)O)cn(C7CC7)c6c5OC)CC4C)c4ccc(F)cc43)nc2N)cc(OC)c1OC,-,50 µg/mL,-,-,-,Huh7,92%
Cc1ccc(-c2c(C#N)c(SCC(=O)c3ccc(O)c(O)c3)nc3c2CCCC3)o1,1b,50 µM,luciferase / replicon,-,-,Huh7/Rep-Feo1b,96.7%
COc1cc(Cc2cnc(/N=C3\C(=O)N(CN4CCC(C)CC4)c4ccc(F)cc43)nc2N)cc(OC)c1OC,-,50 µg/mL,-,-,-,Huh7,100%
CC1(C)CC[C@@]2(C(=O)NCc3cn(CCCO)nn3)C(C1)C1=CCC3[C@@]4(C)CC[C@H](O)C(C)(C)C4CC[C@@]3(C)[C@]1(C)C[C@H]2O,-,5 µM,luciferase / entry,-,-,Huh7,67.1%
Cc1cc(C)c2c(=O)[nH]c(SCC(=O)c3ccc(O)c(O)c3)nc2n1,1b,50 µM,luciferase / replicon,-,-,Huh7/Rep-Feo1b,80.9%
COc1cc([C@H]2O[C@@H](c3cc(OC)c4c(c3)OCO4)[C@@H](C)[C@@H]2C)cc2c1OCO2,Cell culture J6/JFH-1,25 µM,-,-,-,Huh7.5,95%
CC1(C)CC[C@@]2(C(=O)NCCOCCNC(=O)[C@]34CCC(C)(C)CC3C3=CCC5[C@@]6(C)CC[C@H](O)C(C)(C)C6CC[C@@]5(C)[C@]3(C)C[C@H]4O)C(C1)C1=CCC3[C@@]4(C)CC[C@H](O)C(C)(C)C4CC[C@@]3(C)[C@]1(C)C[C@H]2O,-,1 µM,luciferase / entry,-,-,Huh7,73.7%
O=C1N/C(=N\c2nnc(-c3ccc(Cl)cc3)s2)S/C1=C\c1ccccc1Cl,-,100 µM,MTS,-,-,Huh7.5-FGR-JC1-Rluc2A,0%
C[C@]1(OC(=O)/C=C/c2ccccc2)C[C@@H](O)[C@]2(O)C=CO[C@@H](O)[C@@H]21,-,20 µg/mL,entry,-,-,-,17.1%
CC1(C)CC[C@]2(C(=O)O)[C@H](O)C[C@]3(C)C(=CC[C@@H]4[C@@]5(C)CC[C@H](O)C(C)(C)[C@@H]5CC[C@]43C)[C@@H]2C1,-,1 µM,luciferase / entry,-,pseudotyped,Huh7,7.2%
O=c1[nH]cnc2c1cnn2Cc1ccccc1,GT1b,50 µM,luciferase / reporter gene,-,-,Huh7,91%
CC1(C)CC[C@@]2(C(=O)NCc3cn(CCOCCOCCOCCn4cc(CNC(=O)[C@]56CCC(C)(C)CC5C5=CCC7[C@@]8(C)CC[C@H](O)C(C)(C)C8CC[C@@]7(C)[C@]5(C)C[C@H]6O)nn4)nn3)C(C1)C1=CCC3[C@@]4(C)CC[C@H](O)C(C)(C)C4CC[C@@]3(C)[C@]1(C)C[C@H]2O,-,1 µM,luciferase / entry,-,-,Huh7,84.1%
COC(=O)C1=CO[C@@H](OC2O[C@H](CO)[C@@H](O)[C@H](O)[C@H]2O)[C@H]2[C@@H]1C=C[C@@]2(O)CO,-,20 µg/mL,entry,-,-,-,0%
CCCn1cc(CNC(=O)[C@]23CCC(C)(C)CC2C2=CCC4[C@@]5(C)CC[C@H](O)C(C)(C)C5CC[C@@]4(C)[C@]2(C)C[C@H]3O)nn1,-,5 µM,luciferase / entry,-,-,Huh7,4.9%
CC(=O)OC[C@]12[C@H](OC(C)=O)[C@H](OCc3ccccc3)[C@@H]3[C@@H](OC(C)=O)[C@@]14O[C@@]3(C)COC(=O)c1cccnc1C(C)C(C)C(=O)O[C@@H]([C@H](OC(C)=O)[C@@H]2OC(C)=O)[C@]4(C)O,Subgenomic replicon S52,50 µM,luciferase,P1220S D1430H S2204I,-,Huh7.5,87%
O=C(OCC1=C[C@@H](O)[C@@H]2C=CO[C@@H](OC3O[C@H](CO)[C@@H](O)[C@H](O)[C@H]3O)[C@H]12)c1ccc(O)cc1,-,20 µg/mL,entry,-,-,-,0%
COc1cc(Cc2cnc(/N=C3\C(=O)N(CN4CCN(c5ccc(Cl)cc5)CC4)c4ccc(F)cc43)nc2N)cc(OC)c1OC,-,50 µg/mL,-,-,-,Huh7,90%
COc1cc(Cc2cnc(/N=C3\C(=O)N(CN4CCCC4)c4ccc(C)cc43)nc2N)cc(OC)c1OC,-,50 µg/mL,-,-,-,Huh7,90%
N#Cc1c(N)nc(SCC(=O)c2ccc(O)c(O)c2)c(C#N)c1-c1ccc(O)cc1,1b,50 µM,luciferase / replicon,-,-,Huh7/Rep-Feo1b,85.8%
COc1cc(/C=C/C(=O)CC(=O)/C=C/c2ccc(O)c(OC)c2)ccc1O,-,15 µM,luciferase / reporter gene,-,-,Huh7/Rep-Feo cells,40–60%
CCOc1ccc2nc(NC(=O)Nc3cccc(OC)c3)sc2c1,-,9.8 µM,PCR,-,-,Huh7.5,90%
Cn1c(=O)c2c(ncn2C)n(C)c1=O,J6/JFH,500 µM,luciferase / replicon,-,-,Huh7.5,40.6%
COc1cccc(N2CCN(CN3C(=O)/C(=N\c4ncc(Cc5cc(OC)c(OC)c(OC)c5)c(N)n4)c4cc(F)ccc43)CC2)c1,-,50 µg/mL,-,-,-,Huh7,100%
COc1cc(Cc2cnc(/N=C3\C(=O)N(CN4CCN(c5ccc([N+](=O)[O-])cc5)CC4)c4ccc(C)cc43)nc2N)cc(OC)c1OC,-,50 µg/mL,-,-,-,Huh7,93%
COc1cc(Cc2cnc(/N=C3\C(=O)N(CN4CCCC4)c4ccc(F)cc43)nc2N)cc(OC)c1OC,-,50 µg/mL,-,-,-,Huh7,88%
CCOC(=O)Cn1nnnc1CN(Cc1ccc(F)cc1)Cc1cc2cc(CC)ccc2[nH]c1=O,1b,50 µM,luciferase / replicon,-,-,Huh7/Rep-Feo1b,91.2%
CN(C)CCCn1cnc2c(=O)oc3ccccc3c21,GT1b,50 µM,luciferase / reporter gene,-,-,Huh7,59%
COc1cccc(N2CCN(CN3C(=O)/C(=N\c4ncc(Cc5cc(OC)c(OC)c(OC)c5)c(N)n4)c4cc(C)ccc43)CC2)c1,-,50 µg/mL,-,-,-,Huh7,100%
C[C@H]1[C@H](C)CC[C@]2(C(=O)O)CC[C@]3(C)C(=CC[C@@H]4[C@@]5(C)CC[C@H](O)C(C)(C)[C@@H]5CC[C@]43C)[C@H]12,-,5 µM,luciferase / entry,-,-,Huh7,35.1%
C[C@@H]1OC(Nc2cccc(NC3O[C@H](C)C(O)C(O)C3O)c2)C(O)C(O)C1O,1b,50 µM,luciferase / replicon,-,-,Huh7/Rep-Feo1b,16.9%
COC(=O)C1=CO[C@@H](O[C@@H]2O[C@H](CO)[C@@H](O)[C@H](O)[C@H]2O)[C@@H]2[C@@H](C)[C@@H](O)C[C@H]12,-,20 µg/mL,entry,-,-,-,0%
CCCC(NC(=O)[C@@H]1C2CCC(=O)C2CN1C(=O)[C@@H](NC(=O)[C@@H](NC(=O)c1cnccn1)C(C)C)C(C)C)C(=O)C(=O)Nc1ccccc1,-,25 µM,-,-,-,-,0%
O=C(O)CCn1ncc2c(=O)[nH]cnc21,GT2a,50 µM,luciferase / reporter gene,-,-,Huh7.5,85%
CC1(C)CC[C@@]2(C(=O)NCc3cn(CCCCCCn4cc(CNC(=O)[C@]56CCC(C)(C)CC5C5=CCC7[C@@]8(C)CC[C@H](O)C(C)(C)C8CC[C@@]7(C)[C@]5(C)C[C@H]6O)nn4)nn3)C(C1)C1=CCC3[C@@]4(C)CC[C@H](O)C(C)(C)C4CC[C@@]3(C)[C@]1(C)C[C@H]2O,-,5 µM,luciferase / entry,-,-,Huh7,76.9%

5 of the rows above, restated:

structure | strain | dose | method | mutations | setting | cells | result
C[C@@H]1OC(Nc2cccc(NC3O[C@H](C)C(O)C(O)C3O)c2)C(O)C(O)C1O | 1b | 50 µM | luciferase / replicon | - | - | Huh7/Rep-Feo1b | 16.9%
N#Cc1c(N)nc(SCC(=O)c2ccc(O)c(O)c2)c(C#N)c1-c1ccc(O)cc1 | 1b | 50 µM | luciferase / replicon | - | - | Huh7/Rep-Feo1b | 85.8%
COc1cc(Cc2cnc(/N=C3\C(=O)N(CN4CCN(c5c(F)cc6c(=O)c(C(=O)O)cn(C7CC7)c6c5OC)CC4C)c4ccc(F)cc43)nc2N)cc(OC)c1OC | - | 50 µg/mL | - | - | - | Huh7 | 92%
COc1cc(Cc2cnc(/N=C3\C(=O)N(CN4CCCC4)c4ccc(F)cc43)nc2N)cc(OC)c1OC | - | 50 µg/mL | - | - | - | Huh7 | 88%
CCCC(NC(=O)[C@@H]1C2CCC(=O)C2CN1C(=O)[C@@H](NC(=O)[C@@H](NC(=O)c1cnccn1)C(C)C)C(C)C)C(=O)C(=O)Nc1ccccc1 | - | 25 µM | - | - | - | - | 0%